# Values from PubChem BioAssay AID624099 (ICCB-Longwood, 2012).
# Assay: 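Knock-downs relieving repression by E2 of an HPV18 LCR luciferase reporter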 (primary screen)
# Cell system: human C33A cervical carcinoma cells (HPV-negative) stably expressing BPV1 E2 and an HPV18 LCR luciferase reporter
# Knock-down reagent: siRNA pool against human genes, 40 nM
# Duration: 72 h
# Read-out: 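HPV18 LCR reporter light per well, converted to plate-wise z-scores that exclude control wells, and averaged over triplicate plates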
# Scale: mean z-score and z-score: higher = stronger reporter signal, weaker E2 silencing
# Hit rule: 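Hit if mean z-score reaches 2 and two or more of three replicate z-scores also reach 2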
# In all, the deposit lists about 21,000 reagents; shown is a part drawn at random. 497 of all reagents (2.4%) were called active. 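Higher z means weaker E2 silencing; only reporter increases were scored, and knock-downs that hurt cell survival may mask genuine repressor factors.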 Unmarked entries are inactive. No sequences are given here.
gene symbol,PubChem SID,mean z-score,"z-score, replicate A","z-score, replicate B","z-score, replicate C"
SLC4A3,SID134312629,-0.36,-0.26,-0.56,-0.25
HPS4,SID134321293,0.17,0.17,0.11,0.22
USP14,SID134311486,-0.28,-0.23,-0.2,-0.41
LINC00475,SID134328143,1.22,1.55,0.97,1.14
OTUD5,SID134318027,0.3,0.39,0.33,0.17
GLB1L2,SID134322527,-1.94,-2.18,-1.87,-1.79
RASA4CP,SID134327754,-0.88,-0.99,-0.74,-0.9
RASA4CP,SID134327851,-1.15,-1.29,-0.9,-1.28
ERCC6,SID134310656,1.38,1.43,1.44,1.27
FRG1BP,SID134329520,-0.38,-0.49,-0.42,-0.23
COL27A1,SID134322639,-0.38,-0.43,-0.33,-0.38
ZER1,SID134323214,0.04,0.03,-0.09,0.18
WNT10B,SID134312728,0.76,0.6,0.46,1.24
PLEKHF2,SID134322267,0.83,0.57,1.07,0.84
FIS1,SID134324536,-0.29,-0.15,-0.36,-0.35
MRAS,SID134313453,0.39,0.28,0.38,0.51
SH3BP2,SID134319443,-0.37,-0.33,-0.35,-0.43
PTCHD1,SID134312847,-1.25,-1.63,-1.13,-0.99
MAGI2,SID134316727,0.15,-0.29,0.46,0.29
DGKG,SID56479092,0.31,0.81,0.21,-0.09
FGL2,SID134312841,0.15,0.52,-0.12,0.05
RDH10,SID134314662,-1.07,-1.38,-0.61,-1.22
CCND2,SID56478572,-0.77,-1.04,-0.25,-1.03
OCRL,SID134314677,-1,-0.73,-1.18,-1.1
ADD1,SID134314222,0.66,0.52,0.69,0.78
TOMM22P3,SID134325157,0.29,0.2,0.17,0.49
HPF1P1,SID134328094,-1.01,-0.85,-1.15,-1.01
TMEM222,SID134318882,0.35,0.68,0.22,0.15

Targets above whose target name starts with M or m (2):
gene symbol,PubChem SID,mean z-score,"z-score, replicate A","z-score, replicate B","z-score, replicate C"
MRAS,SID134313453,0.39,0.28,0.38,0.51
MAGI2,SID134316727,0.15,-0.29,0.46,0.29

Additional results follow.
gene symbol,PubChem SID,mean z-score,"z-score, replicate A","z-score, replicate B","z-score, replicate C"
DUOX2,SID134313203,-1.15,-1.1,-1.28,-1.07
CBX4,SID134313233,-0.36,-0.44,-0.41,-0.24
PNP,SID134314310,-0.89,-0.54,-1.01,-1.12
HIGD2B,SID134328553,-0.25,-0.57,0.11,-0.28
CSTF1,SID134315598,1.14,1.03,1.22,1.18
DLGAP2,SID134314369,-0.25,0,-0.35,-0.4
GPR82,SID134311042,0.75,0.94,0.42,0.89
INTS14,SID134318770,0.14,0.33,0.21,-0.12
DHRSX,SID134313050,-0.34,-0.82,0.13,0.2
CREB5,SID134313309,0.22,0.18,0.18,0.29
CREB5,SID134327747,0.73,0.62,0.62,0.96
CREB5,SID134327840,0.33,0.44,0.42,0.13
TEDAR,SID134326972,0.02,0.03,0.06,-0.02
PDCD7,SID134316393,-0.06,-0.28,-0.15,0.25
UBTFL6,SID134325423,-0.14,0.02,0.46,-0.89
DGAT2,SID134314091,0.24,0.17,0.25,0.31
OR51M1,SID134328328,-0.85,-0.75,-0.66,-1.16
OR51G1,SID134329887,0.43,0.36,0.16,0.75
LOC389048 (retired record),SID134327222,-1.19,-0.9,-1.37,-1.31
NKPD1,SID134326824,0.2,0.41,-0.19,0.37
UNC93A,SID134321933,-0.9,-0.62,-0.77,-1.3
LOC401460 (retired record),SID134328008,-1.23,-1.09,-1.47,-1.13
CTU1,SID134319814,0.44,0.39,0.24,0.68
TC2N,SID134322164,-0.54,-0.5,-0.61,-0.51
MEMO1P1,SID134329064,-1.14,-0.99,-1.21,-1.22
LOC390877,SID134328968,0.28,0.2,0.09,0.54
LOC392238 (retired record),SID134328027,0.06,0.02,0.2,-0.04
KDM4C,SID134310370,1.3,1.44,1.17,1.28
CST2,SID134321332,-0.58,-0.58,-0.7,-0.48
